Pooled drug test results. Numbers come from NIAID ChemDB, via PubChem.

Shared fields: growth or infection tests; species: Mycobacterium avium

Neighbouring rows are from separate reports.

SMILES,read-out,read by,strain or isolate,value
S=c1nn[nH]n1-c1ccc(Cl)c(Cl)c1,MIC,-,MY330/88,>500 µM
CCC1Cn2cc([N+](=O)[O-])nc2O1,MIC,-,3 isolates,>250 µg/mL
NNC(=O)c1ccncc1,MIC,-,-,5 µg/mL
CCOc1cccc(NC(=O)OCCC[NH+]2CCCCC2)c1,MIC,-,MY330/88,500 µM
COc1ccc2c(=O)n(-c3ccc(F)cc3)c(=O)oc2c1,MIC,-,CNCTC MY330/88,62.5 µM
O=C(Nn1cncn1)c1ccc(Cl)cc1O,MIC,-,MY330/88,1000 µM
CC[C@@H](CO)NCC[C@H]1O[C@H](O[C@H]2O[C@H](CCN[C@@H](CC)CO)[C@@H](O)[C@H](O)[C@H]2O)[C@H](O)[C@@H](O)[C@@H]1O,MIC,-,3 to 5 clinical isolates,>128 µg/mL
Cc1ccc2nc(SCc3ccccc3Cl)[nH]c2c1,MIC,-,MY330/88,62 µM
O=C(c1ccc(Cl)cc1)c1ccc(-c2ccc(Br)cc2)cc1,MIC,-,-,344 µM
OCCN1CCN(CC/C=C2/c3ccccc3Sc3ccc(C(F)(F)F)cc32)CC1,MIC,-,T 10350,25 µg/mL
COc1cc(/C=N/N(C(=O)c2ccncc2)C(=O)c2cnccn2)ccc1O,MIC,-,ATCC49601,>16 µg/mL
O=c1oc2ccc(Cl)cc2c(=O)n1-c1cccc(F)c1,MIC,-,CNCTC MY330/88,16 µM
CCCCCCCOc1ccc(NC(=O)OCCC[NH+]2CCCCC2)cc1,MIC,-,MY330/88,16 µM
O=C(Nn1cncn1)c1cc(Cl)ccc1O,MIC,-,MY330/88,1000 µM
COc1ccc(C(=O)c2ccc(-c3ccc(Br)cc3)cc2)cc1,MIC,-,-,681 µM
CN(C)CC/C=C1\c2ccccc2Sc2ccc(Cl)cc21,MIC,-,T 10350,25 µg/mL
COc1ccc(/C=N/N(C(=O)c2ccncc2)C(=O)c2cnccn2)cc1,MIC,-,ATCC49601,>16 µg/mL
Brc1cncnc1-c1ccc(-c2ccccc2)s1,MIC,broth dilution,-,0.7 µg/mL
CC1=CCC[C@@H]2[C@@](C)(CC/C(C)=C/CO)[C@H](C)CC[C@@]12C,MIC,-,-,>100 µg/mL
Clc1ccc2c(c1)nc1cc(Nc3ccccc3)c(=NC3CCCCC3)cc-1n2-c1ccccc1,MIC,-,18698,0.7 µg/mL
CCCCOc1ccc(NC(=O)OCCC[NH+]2CCCCC2)cc1,MIC,-,MY330/88,125 µM
CN[C@@H]1[C@H](O[C@H]2[C@H](O[C@H]3[C@H](O)[C@@H](O)[C@H](N=C(N)N)[C@@H](O)[C@@H]3N=C(N)N)O[C@@H](C)[C@]2(O)C=O)O[C@@H](CO)[C@H](O)[C@H]1O,MIC,-,S-141,12.5 µg/mL
CC(C)C1=CC2=CC[C@@H]3C(C)(C)CCC[C@@]3(C)[C@@H]2CC1,MIC,-,-,>100 µg/mL
O=C(c1ccc(Br)cc1)c1ccc(-c2ccc(Br)cc2)cc1,MIC,-,-,307 µM
O=C(Nc1cnccn1)c1cc(F)ccc1O,MIC,-,MY330/88,125 µM
CN(C)CC/C=C1/c2ccccc2Sc2ccc(Cl)cc21,MIC,-,T 10350,25 µg/mL
CCCCCC#Cc1cn([C@H]2C[C@H](O)[C@@H](CO)O2)c(=O)[nH]c1=O,MIC90,-,-,>100 µg/mL
CCC(CO)NC[C@@H]1N[C@H](CO)[C@@H](O)[C@@H]1O,MIC,-,3 to 5 clinical isolates,>128 µg/mL
CCCCOc1cccc(NC(=O)OCCC[NH+]2CCCCC2)c1,MIC,-,MY330/88,125 µM
Cc1ccc2c(=O)n(-c3ccccc3)c(=O)oc2c1,MIC,-,CNCTC MY330/88,31 µM
CCCCCOc1ccc(NC(=O)OCCC[NH+]2CCCCC2)cc1,MIC,-,MY330/88,32 µM
CC[C@H](CO)NCC[C@H]1O[C@H](O[C@H]2O[C@H](CCN[C@H](CC)CO)[C@@H](O)[C@H](O)[C@H]2O)[C@H](O)[C@@H](O)[C@@H]1O,MIC,-,3 to 5 clinical isolates,>128 µg/mL
COc1ccccc1NC(=O)OCCC[NH+]1CCCCC1,MIC,-,MY330/88,1000 µM
CC[C@H]1OC(=O)[C@H](C)[C@@H](O[C@H]2C[C@@](C)(OC)[C@@H](O)[C@H](C)O2)[C@H](C)[C@@H](O[C@@H]2O[C@H](C)C[C@H](N(C)C)[C@H]2O)[C@](C)(OC)C[C@@H](C)C(=O)[C@H](C)[C@@H](O)[C@]1(C)O,MIC,broth dilution,IWGMT49,4 µg/mL
Cc1ccc2nc(SCc3ccc(C(N)=S)cc3)[nH]c2c1,MIC,-,MY330/88,16 µM
COc1ccc(/C=N/N(C(=O)c2ccncc2)C(=O)c2cnccn2)c(O)c1,MIC,-,ATCC49601,>16 µg/mL
COc1ccc(CSc2nc3ccc(C)cc3[nH]2)cc1,MIC,-,MY330/88,62 µM
O=C(c1ccncc1)N(/N=C/c1ccc(Cl)cc1)C(=O)c1cnccn1,MIC,-,ATCC49601,>16 µg/mL
Cc1cc(NC(=O)c2cc(F)ccc2O)no1,MIC,-,MY330/88,250 µM
CCC(CO)NC[C@@H]1O[C@H](CO)[C@@H](O)[C@@H]1O,MIC,-,3 to 5 clinical isolates,>128 µg/mL
O=c1oc2ccc([N+](=O)[O-])cc2c(=O)n1-c1ccc(Cl)cc1,MIC,-,CNCTC MY330/88,125 µM
CC(C)c1c(O)cc([C@@H](N=C(N)N)C(=O)NCC(=O)O)cc1O,MIC,-,S-141,25 µg/mL
C[C@@H]1CC[C@H]2C(C(=O)O)=CCC[C@@H]2[C@@]1(C)CCc1ccoc1,MIC,-,-,>100 µg/mL

Repeating the final 5 entries:

| SMILES | read-out | read by | strain or isolate | value |
|---|---|---|---|---|
| Cc1cc(NC(=O)c2cc(F)ccc2O)no1 | MIC | - | MY330/88 | 250 µM |
| CCC(CO)NC[C@@H]1O[C@H](CO)[C@@H](O)[C@@H]1O | MIC | - | 3 to 5 clinical isolates | >128 µg/mL |
| O=c1oc2ccc([N+](=O)[O-])cc2c(=O)n1-c1ccc(Cl)cc1 | MIC | - | CNCTC MY330/88 | 125 µM |
| CC(C)c1c(O)cc([C@@H](N=C(N)N)C(=O)NCC(=O)O)cc1O | MIC | - | S-141 | 25 µg/mL |
| C[C@@H]1CC[C@H]2C(C(=O)O)=CCC[C@@H]2[C@@]1(C)CCc1ccoc1 | MIC | - | - | >100 µg/mL |

An empty or dashed field is not shown. MIC50, MIC90 and the like: level of inhibition, or share of isolates inhibited.